In test [1] the test system is TSST-1 production in wild-type group-III S. aureus (MN8). The test can be described thus: TSST-1 ELISA assay. The test is classed as cell-based. The conditions noted are these: for reduction of TSST production: 100 μM, pure cyclic dipeptide, MN8. Background: ELISA stands for enzyme-linked immunosorbent assay.
The next test has as its target AgrC-I (Staphylococcus aureus, UniProt O07911). Put plainly: Fluorescence (P3-gfp) reporter gene assay, group-I strain AH1677. The test is classed as cell-based, S. aureus.

Sequences of proteins named here, by UniProt entry; tags and fusion partners are left off. Residues count along the entry.
UniProt O07911, 1-430: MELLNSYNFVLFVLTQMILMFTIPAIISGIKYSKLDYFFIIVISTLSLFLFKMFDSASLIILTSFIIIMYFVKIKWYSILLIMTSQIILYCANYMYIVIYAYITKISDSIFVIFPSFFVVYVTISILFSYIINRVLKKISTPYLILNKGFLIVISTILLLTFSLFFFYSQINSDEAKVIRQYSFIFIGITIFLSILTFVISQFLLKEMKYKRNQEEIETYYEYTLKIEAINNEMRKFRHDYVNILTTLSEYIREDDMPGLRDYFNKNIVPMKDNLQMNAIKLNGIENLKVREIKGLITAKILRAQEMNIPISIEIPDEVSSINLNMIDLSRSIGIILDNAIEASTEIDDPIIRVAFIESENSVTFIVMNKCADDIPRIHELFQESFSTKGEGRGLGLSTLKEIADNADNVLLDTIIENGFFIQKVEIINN

A value given as a limit tells only on which side of the number the result lay.

As for cyclo-(Tyr-Pro), the “reduction of TSST production” value in test [1] turned out to be 50%.
On to `CC[C@@H](C)C1NC(=O)CN(CC(=O)N[C@H]2CSC(=O)[C@H](CC(C)C)NC(=O)[C@H](CC(C)C)NC(=O)[C@H](Cc3ccccc3)NC(=O)[C@H](CC(=O)O)NC2=O)C1=O` (stereo partly drawn) [AIP-III nN2 DKP, (I-nN)-(C-D-F-L-L)], for which, on AgrC-I, the “fold change (loss of ability to inhibit AgrC-I) relative to AIP-III” value is given as > 20 fold. The “TSST-1 production by a group-III S. aureus strain” value in test [1] (low μM concentrations) is listed as “significantly reduced TSST-1 production”.
As for cyclo-(Phe-Pro), the “reduction of TSST production” value in test [1] was found to be 80%.

For the origin of these results see patent US20200140489A1 (priority 2013, published 2020).
